Anti-infective test results gathered from many reports (values: NIAID ChemDB through PubChem).

Shared fields: whole-cell or culture tests; species: Measles virus; read-out: EC50

Neighbouring rows are from separate reports.

SMILES,cells,read by,strain,result
C#Cc1c(C(N)=O)ncn1[C@@H]1O[C@H](CO)[C@@H](O)[C@H]1O,VERO,cytopathic effect,Sugiyama,0.5 µg/mL
Nc1ncnc2c1ncn2C1CC(CO)[C@@H](O)[C@H]1O,VERO,cytopathic effect,,≥4 µg/mL
Nc1ncnc2c1ncn2[C@@H]1C=C(CO)[C@@H](O)[C@H]1O,VERO,cytopathic effect,,0.04 µg/mL
Nc1ncnc2c1c(Br)cn2[C@@H]1O[C@H](CO)[C@@H](O)[C@H]1O,VERO,cytopathic effect,,0.2 µg/mL
Nc1ncnc2c1ccn2[C@@H]1O[C@H](CO)[C@H](O)[C@H]1O,VERO,cytopathic effect,,≥40 µg/mL
OC[C@H]1O[C@@H]2O[C@H]3[C@H](O)[C@@H](O)[C@@H](O[C@H]4[C@H](O)[C@@H](O)[C@@H](O[C@H]5[C@H](O)[C@@H](O)[C@@H](O[C@H]6[C@H](O)[C@@H](O)[C@@H](O[C@H]7[C@H](O)[C@@H](O)[C@@H](O[C@H]1[C@H](O)[C@H]2O)O[C@@H]7CO)O[C@@H]6CO)O[C@@H]5CO)O[C@@H]4CO)O[C@@H]3CO,VERO,plaque count,CAM/RB,>2560 µM
CC(O)c1cn([C@@H]2O[C@H](CO)[C@@H](O)[C@H]2O)c2ncnc(N)c12,VERO,cytopathic effect,,>40 µg/mL
NC(=O)c1ncn([C@@H]2O[C@H](CO)[C@@H](O)[C@H]2O)n1,HeLa,plaque count,Sugiyama,8 µg/mL
CCCSc1nsc(-c2ccccc2)c1C#N,HEP-2,plaque count,Edmonston,>200 µg/mL
CC[C@@H](C(C)C)[C@@H](O)[C@H](O)[C@@H](C)[C@H]1CC[C@H]2[C@@H]3CC(=O)[C@@]4(O)C[C@@H](Br)CC[C@]4(C)[C@H]3CC[C@]12C,VERO,plaque count,MV/Brazil/001/91,13 µM
Nc1ncnc2c1ccn2[C@@H]1C[C@H](CO)[C@@H](O)[C@H]1O,VERO,cytopathic effect,,4 µg/mL
NC(=O)c1ncn([C@@H]2O[C@H](CO)[C@@H](O)[C@H]2O)n1,VERO,plaque count,Edmonston,48.2 µM
Nc1nc2c(ncn2CCOCP(=O)(O)O)c(=O)[nH]1,,neutral red,Halonen,<0.03 µg/mL
CC[C@@H](C(C)C)[C@H](O)[C@@H](O)[C@@H](C)[C@H]1CC[C@H]2[C@@H]3CC(=O)[C@@]4(F)C[C@@H](O)CC[C@]4(C)[C@H]3CC[C@]12C,VERO,plaque count,MV/Brazil/001/91,3 µM
C#Cc1c(C(N)=O)ncn1[C@@H]1O[C@H](CO)[C@@H](O)[C@H]1O,VERO,plaque count,Sugiyama,1.1 µg/mL
Nc1ccn([C@@H]2C[C@@H](O)[C@H](CO)O2)c(=O)n1,CV-1,,,>100 µM
CCNc1nc(=O)c2ncn([C@@H]3O[C@H](CO)[C@@H](O)[C@H]3O)c2c(=O)[nH]1,HepG2.2.15,neutral red,,1.2 µM
CSc1nsc(-c2ccccc2)c1C#N,HEP-2,plaque count,Edmonston,>20 µg/mL
Nc1nccc2c1ncn2[C@@H]1C[C@H](CO)[C@@H](O)[C@H]1O,VERO,cytopathic effect,,2 µg/mL
N#Cc1c(SCCO)nsc1-c1ccccc1,HEP-2,plaque count,Edmonston,>5 µg/mL
CC[C@H](/C=C/[C@@H](C)[C@H]1CC[C@H]2[C@@H]3CC(=O)[C@@]4(F)CC=CC[C@]4(C)[C@H]3CC[C@]12C)C(C)C,VERO,plaque count,MV/Brazil/001/91,701 µM
Nc1ncnc2c1ncn2CC(O)C(=O)O,VERO,plaque count,Niigata-1,62 µg/mL
CC[C@@H](C(C)C)[C@@H](O)[C@H](O)[C@@H](C)[C@H]1CC[C@H]2[C@@H]3CC(=O)[C@H]4C[C@H](O)[C@H](O)C[C@]4(C)[C@H]3CC[C@]12C,VERO,plaque count,MV/Brazil/001/91,42 µM
Nc1cc2[nH]cnc2c(=O)[nH]1,VERO,plaque count,Sugiyama,1.23 µg/mL
N#Cc1c(N2CCOCC2)nsc1-c1ccccc1,HEP-2,plaque count,Edmonston,>1 µg/mL
Nc1nccc2c1ncn2[C@@H]1O[C@H](CO)[C@@H](O)[C@H]1O,VERO,cytopathic effect,,≥40 µg/mL
NC(=O)c1ncn([C@@H]2O[C@H](CO)[C@@H](O)[C@H]2O)n1,CV-1,cytopathic effect,TN1994,10 µg/mL
CC1(C)[C@@H](O[C@H]2O[C@H](C(=O)O)[C@@H](O)[C@H](O)[C@H]2O[C@@H]2O[C@H](C(=O)O)[C@@H](O)[C@H](O)[C@H]2O)CC[C@]2(C)[C@H]3C(=O)C=C4[C@@H]5C[C@@](C)(C(=O)O)CC[C@]5(C)CC[C@@]4(C)[C@]3(C)CC[C@@H]12,VERO,plaque count,Niigata-1,760 µg/mL
CCCc1cc(=O)oc2cc(O)cc(O)c12,,cytopathic effect,,100 µg/mL
O=c1[nH]cnc2c1ncn2[C@@H]1C=C(CO)[C@@H](O)[C@H]1O,VERO,cytopathic effect,,20 µg/mL
Nc1nccc2c1ncn2[C@@H]1O[C@H](CO)[C@@H](O)[C@H]1O,VERO,cytopathic effect,,≥40 µg/mL
CCSc1nsc(-c2ccccc2)c1C#N,HEP-2,plaque count,Edmonston,>100 µg/mL
CC[C@@H](C(C)C)[C@@H](O)[C@H](O)[C@@H](C)[C@H]1CC[C@H]2[C@@H]3CC(=O)[C@@]4(O)C[C@H](O)[C@H](O)C[C@]4(C)[C@H]3CC[C@]12C,VERO,plaque count,MV/Brazil/001/91,131 µM
CCOC(=O)CSc1nsc(-c2ccccc2)c1C#N,HEP-2,plaque count,Edmonston,>200 µg/mL
CC[C@@H](C(C)C)[C@@H](O)[C@H](O)[C@@H](C)[C@H]1CC[C@H]2[C@@H]3CC(=O)[C@@]4(O)C[C@@H](O)CC[C@]4(C)[C@H]3CC[C@]12C,VERO,plaque count,MV/Brazil/001/91,30 µM
Cc1cn([C@@H]2C[C@@H](O)[C@H](CO)O2)c(=O)[nH]c1=O,CV-1,,,>100 µM
NC(=O)c1csc([C@@H]2O[C@H](CO)[C@@H](O)[C@H]2O)n1,HeLa,cytopathic effect,Edmonston,86 µg/mL
O=c1cnn([C@@H]2O[C@H](CO)[C@@H](O)[C@H]2O)c(=O)[nH]1,VERO,plaque count,Kitaken-1,0.78 µg/mL
C#Cc1c(C(N)=O)ncn1[C@@H]1O[C@H](CO)[C@@H](O)[C@H]1O,VERO,plaque count,Toyoshima,0.9 µg/mL
NC12CC3CC(CC(C3)C1)C2,VERO,plaque count,Sugiyama,100 µg/mL
CC[C@@H](C(C)C)[C@H](O)[C@@H](O)[C@@H](C)[C@H]1CC[C@H]2[C@@H]3CC(=O)[C@@]4(O)C[C@@H](OC(C)=O)CC[C@]4(C)[C@H]3CC[C@]12C,VERO,plaque count,MV/Brazil/001/91,23 µM
Nc1ncnc2c1ncn2[C@H]1[C@H](O)[C@H](O)[C@]2(CO)O[C@H]12,VERO,cytopathic effect,,0.4 µg/mL
NC(=O)c1ncn([C@@H]2O[C@H](CO)[C@@H](O)[C@H]2O)n1,VERO,plaque count,Sugiyama,7.4 µg/mL

Repeating the final 3 entries:

SMILES	cells	read by	strain	result
CC[C@@H](C(C)C)[C@H](O)[C@@H](O)[C@@H](C)[C@H]1CC[C@H]2[C@@H]3CC(=O)[C@@]4(O)C[C@@H](OC(C)=O)CC[C@]4(C)[C@H]3CC[C@]12C	VERO	plaque count	MV/Brazil/001/91	23 µM
Nc1ncnc2c1ncn2[C@H]1[C@H](O)[C@H](O)[C@]2(CO)O[C@H]12	VERO	cytopathic effect		0.4 µg/mL
NC(=O)c1ncn([C@@H]2O[C@H](CO)[C@@H](O)[C@H]2O)n1	VERO	plaque count	Sugiyama	7.4 µg/mL

ECn is the concentration giving n% inhibition of infection, replication or growth. Blank or dashed fields: not listed here.